Results of unrelated studies side by side (data: NIAID ChemDB).

All rows: growth or infection tests; organism: HIV-1; cells: OM-10.1; read-out: EC50

ECn: concentration that inhibits the pathogen or its effect by n%.

| smiles | strain or isolate | read by | result |
|---|---|---|---|
| O=C1NCCN(Cc2cccc([N+](=O)[O-])c2)c2c1sc1ccc([N+](=O)[O-])cc21 | - | p24 | 0.01 µM |
| COc1ccc2c(c1OC)c(=O)c1ccccc1n2C | IIIB | p24 / ELISA | >28 µg/mL |
| COc1cc(O)c2c(=O)c3ccccc3n(C)c2c1 | IIIB | p24 / ELISA | >0.8 µg/mL |
| CCCCN1CCNC(=O)C2=C1c1cc(OC)ccc1CC2 | - | p24 | 0.8 µM |
| COc1ccc2[nH]c3ccccc3c(=O)c2c1OC | IIIB | p24 / ELISA | >32 µg/mL |
| COc1ccc2c(c1OC)c(=O)c1ccccc1n2C | IIIB | p24 / ELISA | >28 µg/mL |
| C=CCN1CCNC(=O)c2sc3ccc(OC)cc3c21 | - | p24 | <0.08 µM |
| CCn1cc(C(=O)O)c(=O)c2cc(F)c(N3CCN(c4ccccc4OC)CC3)c(OC(F)F)c21 | - | p24 | 0.05 µM |
| COc1ccc2ccc3c(c2c1)OC1(CCN(Cc2ccc(C#N)cc2)CC1)NC3=O | - | ELISA | 1.4 µM |
| Cn1c2ccccc2c(=O)c2c(O)c(O)ccc21 | IIIB | p24 / ELISA | >7.8 µg/mL |
| Cn1c2ccccc2c(=O)c2ccccc21 | IIIB | p24 / ELISA | 4.9 µg/mL |
| COc1ccc2c(c1)C1=C(CC2)C(=O)NCCN1Cc1ccc([N+](=O)[O-])cc1 | - | p24 | 1 µM |
| Cn1c2ccccc2c(=O)c2c(O)ccc(O)c21 | IIIB | p24 / ELISA | >0.36 µg/mL |
| Cn1c2ccccc2c(=O)c2ccccc21 | IIIB | p24 / ELISA | 4.9 µg/mL |
| O=C(O)c1cn(-c2ccc(Cn3cncn3)cc2)c2c(OC(F)F)c(N3CC=C(c4ccccc4)CC3)c(F)cc2c1=O | - | p24 | 0.017 µM |
| COc1cccc2[nH]c3ccccc3c(=O)c12 | IIIB | p24 / ELISA | >17 µg/mL |

A second listing of 2 rows from above:

smiles,strain or isolate,read by,result
COc1cccc2[nH]c3ccccc3c(=O)c12,IIIB,p24 / ELISA,>17 µg/mL
CCCCN1CCNC(=O)C2=C1c1cc(OC)ccc1CC2,-,p24,0.8 µM

Neighbouring rows are from separate reports. Blank or dashed fields: not listed here.